The source of these data is patent publication US10130714B2 (priority 2012, dated 2018).

The assay concerns A/WSN/1933 (H1N1) virus. The experiment in a line: Cytopathic prevention assay in MDCK cells, H1N1. The note with it: read-out: EC50 (nM), anti-influenza activity, table data are ranges or single assay results.

Structures were worked out from names or drawings and are uncertain.

`COc1ccc2cc([C@H](C)C(=O)OCCCNC(=O)O[C@@H]([C@@H]3OC(C(=O)O)=C[C@H](NC(=N)N)[C@H]3NC(C)=O)[C@H](O)CO)ccc2c1`: the half-maximal effective concentration (EC50) came to 0.8 nM.

The term EC50 denotes the concentration giving half of the maximal effect.
